The target in this assay is Protease (Human immunodeficiency virus 1, UniProt Q9YQ12). The experiment in a line: Inhibition of HIV1 protease.

With `CC(C)(C)NC(=O)[C@@H]1C[C@@H]2CCCC[C@@H]2CN1C[C@@H](O)[C@H](Cc1ccccc1)NC(=O)[C@H](CC(N)=O)NC(=O)c1ccc2ccccc2n1`, the inhibition constant (Ki) came out at 0.08 nM.
As for `Cc1cccc(C)c1OCC(=O)N[C@@H](Cc1ccccc1)[C@@H](O)C[C@H](Cc1ccccc1)NC(=O)[C@H](C(C)C)N1CCCNC1=O` [LOPINAVIR], the figure is 0.014 nM.
`CC(C)(C)NC(=O)[C@@H]1CN(Cc2cccnc2)CCN1C[C@@H](O)C[C@@H](Cc1ccccc1)C(=O)N[C@H]1c2ccccc2C[C@H]1O` came in with a Ki of 1.95 nM.

(Values after ChEMBL document CHEMBL1137017, “In vitro antiviral activity and cross-resistance profile of PL-100, a novel protease inhibitor of human immunodeficiency virus type 1” (Antimicrob Agents Chemother, 2007).)
